Converted amounts (≈) assume the structure as drawn.

Protein sequences, listed by entry. Tags and fused reporters are not part of them.
UniProt Q8T6T2, whole entry: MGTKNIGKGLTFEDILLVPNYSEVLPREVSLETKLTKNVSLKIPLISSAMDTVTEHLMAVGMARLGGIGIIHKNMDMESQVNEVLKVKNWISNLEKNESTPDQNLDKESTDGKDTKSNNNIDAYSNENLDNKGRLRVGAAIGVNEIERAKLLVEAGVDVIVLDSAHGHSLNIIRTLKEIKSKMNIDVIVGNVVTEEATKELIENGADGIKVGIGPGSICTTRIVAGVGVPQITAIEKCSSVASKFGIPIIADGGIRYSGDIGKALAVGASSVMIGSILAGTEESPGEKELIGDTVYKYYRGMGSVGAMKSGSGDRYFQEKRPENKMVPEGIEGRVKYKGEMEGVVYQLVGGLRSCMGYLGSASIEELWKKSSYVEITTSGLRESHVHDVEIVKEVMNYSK

The target in assay [1] is MtbIMPDH2ΔCBS (Mycobacterium tuberculosis, UniProt P9WKI7, DEL126-250/R252G). Briefly: Inhibition of MtbIMPDH2ΔCBS (Ki,app). The class given is biochemical. The conditions noted are these: read-out: K i,app; IMP 0.5 mM, NAD+ […]; average and SD of three independent determinations unless noted (P32 n = 1; Q22, Q36 n = 2).
In assay [2] the test system is B. anthracis. The assay is described as follows: Antibacterial activity against B. anthracis (MIC). The class given is cell-based, Bacillus anthracis. Particulars: comparison of MIC, S8 Table.
Assay [3] deals with Mtb strain H37Rv.
The target of assay [4] is CpIMPDH (Cryptosporidium parvum, UniProt Q8T6T2). Particulars: read-out: CpIMPDH Kiapp; S8 Table, footnote c; cited from earlier work.
Assay [5] concerns the target BaIMPDH (Bacillus anthracis, UniProt A0A6L8P2U9). Particulars: read-out: B. anthracis Ki,app; S8 Table, footnote c; cited from earlier work.
For assay [6], the system named is B. anthracis. The conditions noted are these: S8 Table; cited from earlier work.

For the compound `CCN(CC)C(=O)c1cc(NC(=O)NC(C)(C)c2cccc(C(C)=NO)c2)ccc1Cl`, the Ki in assay [1] was 35 nM. Also, the “fold more effective against B. anthracis than against Mtb” value in assay [2] is listed as 15-28 fold. Besides, in assay [3], the “M. tuberculosis MIC” value is recorded as 14.2 µM, the “MIC in 7H9 media + Gua” value turned out to be 63 ± 13 µM, the “MIC in 7H9 media - Gua” value worked out at 43.5 ± 6.0 µM (≈ 19.4 µg/mL) and the “MIC in GAST media + Gua” value is greater than 50 µM. Further, the “MIC in GAST media - Gua” value in assay [3] was determined as 14.2 ± 5.0 µM (≈ 6.32 µg/mL). In addition, the Ki in assay [4] is 25 nM. For the same compound, in assay [5], the Ki is 40 nM. Further, the “B. anthracis MIC” value in assay [6] was 0.5 µM.

Regarding `CC(=NO)c1cccc(C(C)(C)NC(=O)Nc2ccc(Cl)c(C(=O)N3CCOCC3)c2)c1`, the Ki in assay [1] is 37 nM. In addition, the “fold more effective against B. anthracis than against Mtb” value in assay [2] was 15-28 fold. For the same compound, in assay [3], the “M. tuberculosis MIC” value was found to be 14.9 µM, the “MIC in 7H9 media + Gua” value was 44 ± 7 µM, the “MIC in 7H9 media - Gua” value was 28.0 ± 9.0 µM (≈ 12.9 µg/mL) and the “MIC in GAST media + Gua” value was greater than 50 µM. In addition, the “MIC in GAST media - Gua” value in assay [3] worked out at 14.9 ± 10.0 µM (≈ 6.84 µg/mL). Besides, the Ki in assay [4] is 30 nM. Besides, in assay [5], the Ki was 170 nM. Further, the “B. anthracis MIC” value in assay [6] is recorded as 1 µM.

Source of the values: article PMC4594927 (PLoS ONE, 2015).
